Measured values from several laboratories, pooled; numbers as filed in NIAID ChemDB.

All rows: whole-cell or culture tests; agent: Mycobacterium tuberculosis

ECn: concentration that inhibits the pathogen or its effect by n%.

smiles,endpoint,dose,read by,cell line,setting,mutations,strain,value
CCCCn1c(-c2ccccc2)cs/c1=N\N=C1/C(=O)Nc2ccccc21,inhibition,12 µg/mL,,,,,H37Rv,24%
Cc1ccccc1/C=C/C1=NN(C(=N)N)C(c2ccccc2C)C1,MIC,,resazurin,,,katG S315T isoniazid resistant,RGH103,0.66 µM
O=C(Nc1nc(-c2ccccc2)cs1)c1cc(-c2ccccc2)nc2ccccc12,MIC,,fluorescence,,,,H37Rv,>6.25 µg/mL
CCOC(=O)c1cc(-c2ccc(Cl)cc2)n(CCC(=O)NN)c1C,EC50,,BACTEC,,,,H37Rv,>6.25 µg/mL
CO/C(=N\N=C(\C)C(F)(F)F)c1ccncc1,inhibition,0.5 µM,BACTEC,,,,,0%
CCOC(=O)c1cc(-c2ccccc2)n(CC(=O)N/N=C/c2ccccc2O)c1C,inhibition,6.25 µg/mL,BACTEC,,,,H37Rv,8%
O=C(NNCc1ccccc1)c1ccncc1,EC50,,colony count,Macrophages,inside macrophages,,Erdman,<0.005 µg/mL
CC(C(=O)O)c1ccc(-n2nnc3c(=O)[nH][nH]c(=O)c32)cc1,inhibition,12.5 µg/mL,BACTEC,,,,H37Rv,0%
CCCCNC(=O)c1cc([N+](=O)[O-])cc([N+](=O)[O-])c1,MIC,,visual reading,,,,H37Rv,0.5 µg/mL
Clc1nc(Cl)nc(-c2cccn2-c2ccccc2)n1,inhibition,12.5 µg/mL,BACTEC,,,,H37Rv,-10%
NC[C@H]1O[C@H](O[C@H]2[C@H](O)[C@@H](O[C@H]3O[C@H](CO)[C@@H](O)[C@H](N)[C@H]3O)[C@H](N)C[C@@H]2N)[C@H](O)[C@@H](O)[C@@H]1O,MIC,,,,,,Isolate 6,16 µg/mL
Cc1ccc(NC(=O)c2cc(/C=C/c3ccc(-c4cccs4)s3)nc3ccc(C)cc23)cc1,MIC,,fluorescence,,,,H37Rv,>6.25 µg/mL
Cc1cc(=O)[nH]c(Nc2nc3cc(C)c(C)cc3[nH]2)n1,MIC bound,,resazurin,,,,,>6.25 µg/mL
O=C(N/N=C/c1cccc(C(F)(F)F)c1)c1ccncc1,MIC,,,,,,H37Rv (kanamycin-resistant),1 µg/mL
O=C(Oc1cc(Cl)ccc1C(=O)Nc1cccc(Cl)c1)c1ccccc1,MIC,,broth dilution,,14 d,,331/88 (H37Rv),4 µM
CCOC(=O)c1cc(-c2ccc(OC)cc2)n(CCC(=O)NN)c1C,EC50,,BACTEC,,,,H37Rv,>6.25 µg/mL
C#CCN1C(=O)c2c(C)cc(C)nc2S1(=O)=O,EC50,,,,,,H37Rv,>12.5 µg/mL
CCOC(=O)c1cc(-c2ccc(-c3ccccc3)cc2)n(CC(=O)NN)c1C,inhibition,6.25 µg/mL,BACTEC,,,,H37Rv,0%
NNC(=O)c1cc(/C=C/c2ccc(-c3cccs3)s2)nc2ccccc12,MIC,,fluorescence,,,,H37Rv,>6.25 µg/mL
CO[C@H]1/C=C/O[C@@]2(C)Oc3c(C)c(O)c4c(O)c(c5c(c4c3C2=O)NC2(CCN(CC(C)C)CC2)N=5)=NC(=O)/C(C)=C\C=C\[C@H](C)[C@H](O)[C@@H](C)[C@@H](O)[C@@H](C)[C@H](OC(C)=O)[C@@H]1C,MIC,,,,,,510-3 (RIF-R),2 µg/mL
C=C1C(=O)O[C@H]2[C@@H]3O[C@H](C[C@@H]12)[C@](C)(O)CC/C=C(\C)CCC[C@H]3C,MIC bound,,BACTEC,,,,H37Rv,>12.5 µg/mL
COc1cc(/C=C/C2=NN(C(=N)N)C(c3cc(OC)c(OC)c(OC)c3)C2)cc(OC)c1OC,MIC,,resazurin,,,,H37Rv,5.31 µM
CCOC(=O)Cn1sc2nc(C)cc(C)c2c1=O,inhibition,12.5 µg/mL,,,,,H37Rv,98%
CC(C)c1cc(O)c2c(c1O)[C@H]1C[C@H]3C(C)(C)CCC[C@]23C(=O)O1,MIC bound,,BACTEC,,,,H37Rv,>12.5 µg/mL
Nc1nc(N)c2c(ccc3c2ccn3Cc2cccc([N+](=O)[O-])c2)n1,EC50,,resazurin,,,,ATCC 2724,4.06 µM
O=C(Nc1ccccc1)c1cc(-c2ccccc2)nc2ccccc12,MIC,,fluorescence,,,,H37Rv,>6.25 µg/mL
CC(C)=CCOc1c2ccoc2cc2oc(=O)ccc12,MIC100,,resazurin,,,Isoniazid-resistant,H37Rv clinical isolate CRY7,200 µg/mL
CC(=O)c1c(C)[nH]c(C(=O)NN)c1C,EC50,,BACTEC,,,,H37Rv,>6.25 µg/mL
C=CCn1c(-c2ccc(OC)cc2)cs/c1=N\N=C1/C(=O)Nc2ccccc21,inhibition,12 µg/mL,,,,,H37Rv,98%
O=C(O)c1cc(/C=C\c2ccc([N+](=O)[O-])s2)nc2ccccc12,MIC,,fluorescence,,,,H37Rv,3.125 µg/mL
Cc1c([C@H](C)[C@@H]2NC[C@@H](C)C[C@H]2O)ccc2c1C[C@H]1[C@H]2CC=C2C[C@@H](O)CC[C@@]21C,MIC,,BACTEC,,,,H37Rv,128 µg/mL
O=C(Oc1cc(Cl)ccc1C(=O)Nc1cccc(Br)c1)c1ccccc1,MIC,,broth dilution,,21 d,,331/88 (H37Rv),4 µM
C=CCN1C(=O)C(C)S/C1=N/N=C1\C(=O)Nc2ccc(Br)cc21,MIC,,,,,,H37Rv,>12.5 µg/mL
CCOC(=O)NC(=O)C1C2CC3OC(=O)C1C3C2,inhibition,12.5 µg/mL,BACTEC,,,,H37Rv,15%
COc1ccc(C(C)NNC(=O)c2ccncc2)cc1OC,MIC,,,,,,H37Rv,12.5 µg/mL
Cc1c[nH]c(C)c1C(=O)N/N=C/c1ccc([N+](=O)[O-])o1,EC50,,BACTEC,,,,H37Rv,>6.25 µg/mL
C[C@@H]1CN(c2c(F)c(N)c3c(=O)c(C(=O)O)cn(C4CC4)c3c2F)C[C@H](C)N1,MIC,,,,,,Isolate 15,0.13 µg/mL
O=c1/c(=C\c2ccc(Cl)cc2)sc2nc(-c3ccccc3)nn12,MIC bound,,BACTEC,,,,H37Rv,>12.5 µg/mL
O=C(O)c1cc(-c2ccc([N+](=O)[O-])s2)nc2ccccc12,MIC,,fluorescence,,,,H37Rv,>6.25 µg/mL
CC[C@@]1(O)C[C@H](O[C@H]2C[C@H](N(C)C)[C@H](O)[C@H](C)O2)c2c(cc3c(c2O)C(=O)c2c(O)cccc2C3=O)[C@H]1C(=O)OC,inhibition,12.5 µg/mL,BACTEC,,,,H37Rv,100%
CCOC(=O)CN1C(C(C)=O)=C(O)c2c(C)cc(C)nc2S1(=O)=O,MIC,,,,,,H37Rv,>12.5 µg/mL
Cc1ccc(NC(=O)CNC(C)(C)C)cc1Cl.Cl,MIC bound,,BACTEC,,,,H37Rv,>12.5 µg/mL
C/C(=N\NC(=O)c1ccncc1)c1ccc(F)cc1,MIC,,,,,,H37Rv (isoniazid-resistant),>32 µg/mL
NC[C@@H]1O[C@H](O[C@H]2[C@@H](O)[C@H](O[C@@H]3[C@@H](O)[C@H](N)C[C@H](N)[C@H]3O[C@H]3O[C@H](CO)[C@@H](O)[C@H](O)[C@H]3N)O[C@@H]2CO)[C@H](N)[C@@H](O)[C@@H]1O,MIC,,,,,,MTB14 (S),1.5 µg/mL
O=C(O)c1c2n(c3cc([N+](=O)[O-])c(N4CCC5(CC4)OCCO5)cc3c1=O)CS2,MIC,,agar,,,,H37Rv,0.09 µM
C=CCn1c(-c2ccccc2)cs/c1=N\N=C1/C(=O)Nc2ccc(Br)cc21.O,EC50,,,,,,H37Rv,>12 µg/mL
O=C(Nc1nc(-c2ccc(Br)s2)cs1)c1cc(/C=C/c2ccc([N+](=O)[O-])s2)nc2ccccc12,MIC,,fluorescence,,,,H37Rv,6.25 µg/mL
CC(NNC(=O)c1ccncc1)c1ccc(F)cc1,MIC,,,,,,Erdman,1.56 µg/mL
Cc1cc(C)cc(C(=O)N=C(c2ccncc2)c2nc(-c3ccccc3)oc2O)c1,MIC bound,,BACTEC,,,,H37Rv,>12.5 µg/mL
CN[C@@H]1[C@H](O[C@H]2[C@H](O[C@H]3[C@H](O)[C@@H](O)[C@H](N=C(N)N)[C@@H](O)[C@@H]3N=C(N)N)O[C@@H](C)[C@]2(O)C=O)O[C@@H](CO)[C@H](O)[C@H]1O,MIC,,,,,,MTB17 (INH RIF-R),0.3 µg/mL
COc1cccc(-c2[nH]c3cc4c(cc3c(=O)c2C(=O)O)OCO4)c1,inhibition,6.25 µg/mL,resazurin,,,,H37Rv,-8%
C=C[C@](C)(Cl)[C@@H](Br)/C=C/[C@](C)(Cl)CBr,MIC,,,,,,ATCC 358222 (isoniazid-resistant),3.13 µg/mL
CCNC(=S)N=Nc1c(O)[nH]c2ccc(Br)cc12,EC50,,,,,,H37Rv,<12 µg/mL
O=C(N/N=C/c1ccccc1F)c1ccncc1,MIC,,,,,,H37Rv,0.05 µg/mL
O=C(O)c1c2n(c3cc([N+](=O)[O-])c(N4CCC(n5c(=O)[nH]c6ccc(Cl)cc65)CC4)cc3c1=O)CS2,MIC,,agar,,,MDR-TB,H37Rv,0.36 µM
NNC(=O)c1ccncc1,MIC,,,,,,8 strains (isoniazid- rifampin-resistant),16 µg/mL
CC1(C)OC(=O)C2(c3ccccc3-c3ccccc32)C1NC1CCCCC1,inhibition,12.5 µg/mL,BACTEC,,,,H37Rv,-1%
FC(F)(F)c1cc(-c2ccccc2)nc(N2N=C(/C=C/c3ccc(Cl)cc3)CC2c2ccc(Cl)cc2)n1,MIC,,resazurin,,,katG S315T isoniazid resistant,RGH103,>41.2 µM
NNC(=O)c1ccncc1,MIC,,,,,,Isolate 5,8 µg/mL
CC1CN(c2cc3c(=O)c(C(=O)O)c4n(c3cc2F)CS4)CC(C)O1,MIC,,agar,,,,H37Rv,4.28 µM
O=C1OCC(O)C(O)C(O)C(O)C1O,MIC bound,,BACTEC,,,,H37Rv,>12.5 µg/mL
O=C(O)c1cc(-c2ccccc2)nc2ccccc12,MIC,,fluorescence,,,,H37Rv,>6.25 µg/mL
COc1ccc(-c2c(N)[n+]([O-])c3ccccc3[n+]2[O-])cc1OC,MIC,,BACTEC,,,,H37Rv,≥12.5 µg/mL
O=C(Oc1ccc(Cl)cc1C(=O)Nc1ccc(C(F)(F)F)cc1)c1ccccc1,MIC,,broth dilution,,14 d,,331/88 (H37Rv),0.5 µM
CC1CN(c2cc3c(=O)c(C(=O)O)c4n(c3cc2[N+](=O)[O-])CS4)CC(C)O1,MIC,,agar,,,MDR-TB,H37Rv,3.99 µM
Cc1ccc(NC(=O)c2cc(-c3ccc(-c4cccs4)s3)nc3ccc(C)cc23)cc1,MIC,,fluorescence,,,,H37Rv,>6.25 µg/mL
CCCCCC/C=C\CCCCCCCCCC1=C(CN2CCN(C)CC2)C(=O)C=C(OC)C1=O,inhibition,128 µg/mL,BACTEC,,,,H37Rv,99%
Nc1nc(N)c2c(ccc3c2ccn3Cc2ccc([N+](=O)[O-])cc2)n1,EC50,,resazurin,,,,ATCC 2724,>99 µM
Cc1cc(C)c2c(=O)n(CC(N)=O)sc2n1,MIC,,,,,,H37Rv,>12.5 µg/mL
CCN(C(=O)CNCC(C)C)c1ccc(C)c(Cl)c1,MIC bound,,BACTEC,,,,H37Rv,>12.5 µg/mL
O=C(O)c1c2n(c3cc([N+](=O)[O-])c(N4CCSCC4)cc3c1=O)CS2,MIC,,agar,,,,H37Rv,4.12 µM
CC(=O)C1=C(O)c2c(C)cc(C)nc2S(=O)(=O)N1CC(=O)c1ccccc1,MIC,,,,,,H37Rv,>12.5 µg/mL
CCOC(=O)c1oc2ccccc2c1CN,MIC bound,,BACTEC,,,,H37Rv,>12.5 µg/mL
O=C(Oc1ccc(Cl)cc1C(=O)Nc1ccc(Cl)c(Cl)c1)c1ccccc1,MIC,,broth dilution,,14 d,,Praha 131,0.5 µM
O=C(O)c1c2n(c3cc(F)c(N4CCC(n5c(=O)[nH]c6ccc(Cl)cc65)CC4)cc3c1=O)CS2,MIC,,agar,,,,H37Rv,1.56 µM
Oc1cc(Cl)ccc1Oc1ccc(Cl)cc1Cl,MIC,,fluorescence,,,,H37Rv,50 µg/mL
Cc1ccccc1Cn1ccc2c3c(N)nc(N)nc3ccc21,EC50,,resazurin,,,,ATCC 2724,6.03 µM
O=C(O)CCc1nc2c(n1-c1ccccc1)C(=O)c1ccccc1C2=O,inhibition,12.5 µg/mL,BACTEC,,,,H37Rv,0%
CCOC(=O)c1c(C)c(-c2ccccc2)n(CC(=O)N/N=C/c2ccc(O)c(OCC)c2)c1C,EC50,,BACTEC,,,,H37Rv,>6.25 µg/mL
O=C(CSc1nc2ccccc2[nH]1)N=Nc1c(O)[nH]c2ccccc12,EC50,,,,,,H37Rv,>12 µg/mL
O=C(Oc1ccc(Br)cc1C(=O)Nc1ccc(C(F)(F)F)cc1)c1ccccc1,MIC,,broth dilution,,14 d,,Praha 1,1 µM

Repeating the first 7 entries:

smiles,endpoint,dose,read by,cell line,setting,mutations,strain,value
CCCCn1c(-c2ccccc2)cs/c1=N\N=C1/C(=O)Nc2ccccc21,inhibition,12 µg/mL,,,,,H37Rv,24%
Cc1ccccc1/C=C/C1=NN(C(=N)N)C(c2ccccc2C)C1,MIC,,resazurin,,,katG S315T isoniazid resistant,RGH103,0.66 µM
O=C(Nc1nc(-c2ccccc2)cs1)c1cc(-c2ccccc2)nc2ccccc12,MIC,,fluorescence,,,,H37Rv,>6.25 µg/mL
CCOC(=O)c1cc(-c2ccc(Cl)cc2)n(CCC(=O)NN)c1C,EC50,,BACTEC,,,,H37Rv,>6.25 µg/mL
CO/C(=N\N=C(\C)C(F)(F)F)c1ccncc1,inhibition,0.5 µM,BACTEC,,,,,0%
CCOC(=O)c1cc(-c2ccccc2)n(CC(=O)N/N=C/c2ccccc2O)c1C,inhibition,6.25 µg/mL,BACTEC,,,,H37Rv,8%
O=C(NNCc1ccccc1)c1ccncc1,EC50,,colony count,Macrophages,inside macrophages,,Erdman,<0.005 µg/mL

A number after MIC or MFC names an inhibition level or a share of isolates. MIC bound: limit read from a one-dose screen. Inhibition is in % at the dose shown (toxicity tests: loss of growth or viability). Rows are shuffled and stem from different studies. An empty or dashed field is not shown.